Anti-infective test results gathered from many reports (values: NIAID ChemDB through PubChem).

Shared fields: tests in culture; agent: HIV-1; cells: MT-4; endpoint: EC50

An empty or dashed field is not shown. a–b is a range or a potency band. Rows are shuffled and stem from different studies. ECn: concentration that inhibits the pathogen or its effect by n%.

Cc1cc(Cl)cc(C(=O)c2c(C(C)C)c(=O)[nH]c(=O)n2Cc2ccnc(C)c2)c1 ; read by: cytopathic effect / MTT ; value: 0.0027 µg/mL
Cc1cccnc1C1=C[C@H](O)[C@@H](CO)O1 ; value: 38 µg/mL
CC(C)CN(C[C@@H](O)[C@H](Cc1ccc(F)cc1)NC(=O)O[C@H]1C2COC3OCC1C3C2)S(=O)(=O)c1ccc2nc(NC3CC3)sc2c1 ; strain or isolate: NL4-3 ; read by: p24 ; value: 0.000049 µM
Cc1cc(/C=C/C#N)cc(C)c1Nc1nc(Nc2ccc(C#N)cc2)ncc1C(O)OCc1cccnc1 ; strain or isolate: PSI (IIIB) ; value: 437 µM
CC(C)CN(C[C@@H](O)[C@H](Cc1cccc(F)c1)NC(=O)O[C@H]1C2COC3OCC1C3C2)S(=O)(=O)c1ccc2nc(NC3CC3)sc2c1 ; strain or isolate: NL4-3 ; read by: p24 ; value: 0.000057 µM
O=C(CCC(CCC(=O)NCCc1c[nH]c2ccccc12)(CCC(=O)NCCc1c[nH]c2ccccc12)NC(=O)CCOCC(COCCC(=O)NC(CCC(=O)NCCc1c[nH]c2ccccc12)(CCC(=O)NCCc1c[nH]c2ccccc12)CCC(=O)NCCc1c[nH]c2ccccc12)(COCCC(=O)NC(CCC(=O)NCCc1c[nH]c2ccccc12)(CCC(=O)NCCc1c[nH]c2ccccc12)CCC(=O)NCCc1c[nH]c2ccccc12)COCCC(=O)NC(CCC(=O)NCCc1c[nH]c2ccccc12)(CCC(=O)NCCc1c[nH]c2ccccc12)CCC(=O)NCCc1c[nH]c2ccccc12)NCCc1c[nH]c2ccccc12 ; strain or isolate: NL4-3 ; read by: MTS ; value: 45 µM
O=C(NCc1ccc(F)cc1F)c1cn2c(c(O)c1=O)C(=O)N1C3CCC(C3)OC1C2 ; strain or isolate: NL4-3 ; read by: GFP ; setting: 100% human serum ; value: 0.209 µM
Cc1ccc(C2=C[C@H](O)[C@@H](CO)O2)nc1 ; value: 16 µg/mL
Cc1nc2c(c(C)c(C)n2Cc2ccccc2C#N)c(-c2ccc(Cl)cc2)c1C(OC(C)(C)C)C(=O)O ; strain or isolate: IIIB ; read by: MTT ; value: 0.103 µM
Cc1cc(Cl)cc(C(=O)c2c(C(C)C)c(=O)[nH]c(=O)n2Cc2cc(C)nc(C)c2)c1 ; read by: cytopathic effect / MTT ; value: 0.0021 µg/mL
Cc1nc2c(c(C)c(C)n2CC(=O)O)c(-c2ccc(Cl)cc2)c1[C@H](OC(C)(C)C)C(=O)O ; strain or isolate: IIIB ; read by: MTT ; value: 2.04 µM
Cc1cccc(C)c1OC(CCO)C(=O)N[C@@H](Cc1ccccc1)[C@H](O)CN(CC(C)C)S(=O)(=O)c1ccc2nc(N)oc2c1 ; strain or isolate: LAI WT ; read by: cytopathic effect / MTT ; value: 1.62 µM
Cc1cc(/C=C/C#N)cc(C)c1Nc1nc(Nc2ccc(C#N)cc2)ncc1C(O)c1cn2ccnc2s1 ; strain or isolate: PSI (IIIB) ; value: 1000 µM
CCc1c(C(=O)c2cc(C)cc(C)c2)n(Cc2ccncc2)c(=O)[nH]c1=O ; strain or isolate: NNRTI-resistant (RT Y181C) ; mutations: RT-Y181C ; value: 0.01–0.041 µM
CC(C)C1=C2[C@H]3CC[C@@H]4[C@@]5(C)CC[C@H](OC(=O)C6C[C@@H](C(=O)O)C6(C)C)C(C)(C)[C@@H]5CC[C@@]4(C)[C@]3(C)CC[C@@]2(NC(=O)C(C)(C)NC(=O)c2ccc(CN3CCS(=O)(=O)CC3)cc2)CC1=O ; strain or isolate: NL4-3 ; read by: p24 ; value: 0.00501–0.01 µM
Cc1cc(C#N)cc(C)c1OCC(=O)N[C@@H](Cc1ccccc1)[C@H](O)CN(CC(C)C)S(=O)(=O)c1ccc2nc(N)oc2c1 ; strain or isolate: LAI WT ; read by: cytopathic effect / MTT ; value: 0.0871 µM
Nc1ccn([C@@H]2OC[C@H](CO)[C@H]2O)c(=O)n1 ; value: >100 µM
CC(C)CN(C[C@@H](O)[C@H](Cc1ccccc1)NC(=O)O[C@H]1CO[C@H]2OCC[C@H]21)S(=O)(=O)c1ccc2nc(NC3CCN(C4CCCC4)CC3)sc2c1 ; strain or isolate: T13436 ; mutations: V32I L76V ; read by: reporter gene ; value: 5.1 nM
CC(C)c1c(C(=O)c2cc(F)cc(F)c2)n(Cc2cccnc2)c(=O)[nH]c1=O ; read by: cytopathic effect / MTT ; value: 0.049 µg/mL
CC(C)C1=C2[C@H]3CC[C@@H]4[C@@]5(C)CC[C@H](OC(=O)C6C[C@@H](C(=O)O)C6(C)C)C(C)(C)[C@@H]5CC[C@@]4(C)[C@]3(C)CC[C@@]2(NC(=O)C(C)(C)NC(=O)c2ccc(Cl)cn2)CC1=O ; strain or isolate: NL4-3 ; read by: p24 ; value: <0.005 µM
Cc1cc(/C=C/C#N)cc(C)c1Nc1nc(Nc2ccc(C#N)cc2)ncc1C(O)C(C)C ; strain or isolate: IIIB ; value: 0.1 µM
Cc1ccnc(C2=C[C@H](O)[C@@H](CO)O2)c1 ; value: 12 µg/mL
Cc1c(C(=O)N[C@@H](Cc2ccccc2)[C@H](O)CN(CC(C)C)S(=O)(=O)c2ccc3nc(N)oc3c2)ccc([N+](=O)[O-])c1O ; strain or isolate: LAI WT ; read by: cytopathic effect / MTT ; value: 0.0324 µM
CC(C)C1=C2[C@H]3CC[C@@H]4[C@@]5(C)CC[C@H](OC(=O)C6C[C@@H](C(=O)O)C6(C)C)C(C)(C)[C@@H]5CC[C@@]4(C)[C@]3(C)CC[C@@]2(NC(=O)C2(NC(=O)c3ccc(F)cc3)CC2)CC1=O ; strain or isolate: NL4-3 ; mutations: V7A ; read by: p24 ; value: 0.01001–0.05 µM
COc1ccccc1C(O)c1cnc(Nc2ccc(C#N)cc2)nc1Nc1c(C)cc(/C=C/C#N)cc1C ; strain or isolate: PSI (IIIB) ; value: 166 µM
Cc1cc(Br)ccc1C(=O)N[C@@H](Cc1ccccc1)[C@H](O)CN(CC(C)C)S(=O)(=O)c1ccc2nc(N)oc2c1 ; strain or isolate: LAI WT ; read by: cytopathic effect / MTT ; value: 0.0079 µM
Cc1cc(/C=C/C#N)cc(C)c1Nc1nc(Nc2ccc(C#N)cc2)ncc1C(O)c1cncs1 ; strain or isolate: PSI (IIIB) ; value: 316 µM
CCc1c(Sc2cc(Cl)cc(Cl)c2)n(Cc2ccncc2)c(=O)[nH]c1=O ; read by: cytopathic effect / MTT ; value: 0.003 µg/mL
CCC(O)c1cnc(Nc2ccc(C#N)cc2)nc1Nc1c(C)cc(/C=C/C#N)cc1C ; strain or isolate: IIIB ; value: 0.01778 µM
C#CCn1c(C)c(C)c2c(-c3ccc(Cl)cc3)c(C(OC(C)(C)C)C(=O)O)c(C)nc21 ; strain or isolate: IIIB ; read by: MTT ; value: 0.0296 µM
OC[C@H]1OC(c2ccccn2)=C[C@@H]1O ; value: 15 µg/mL
Cc1cncc(C)c1OCC(=O)N[C@@H](Cc1ccccc1)[C@H](O)CN(CC(C)C)S(=O)(=O)c1ccc2nc(N)oc2c1 ; strain or isolate: LAI WT ; read by: cytopathic effect / MTT ; value: 0.0085 µM
Cc1nc2c(c(C)c(C)n2Cc2ccn(C)n2)c(-c2ccc(Cl)cc2)c1[C@H](OC(C)(C)C)C(=O)O ; strain or isolate: IIIB ; read by: MTT ; value: 0.008 µM
Cc1ccc(C(=O)NC(C)(C)C(=O)N[C@@]23CC[C@]4(C)[C@H](CC[C@@H]5[C@@]6(C)CC[C@H](OC(=O)C7C[C@@H](C(=O)O)C7(C)C)C(C)(C)[C@@H]6CC[C@]54C)C2=C(C(C)C)C(=O)C3)cn1 ; strain or isolate: NL4-3 ; read by: p24 ; value: <0.005 µM
Cc1cc(/C=C/C#N)cc(C)c1Nc1nc(Nc2ccc(C#N)cc2)ncc1C(O)OCCO ; strain or isolate: Y181C ; value: 0.00871 µM
CC(C)c1c(C(=O)c2cc(C(F)(F)F)cc(C(F)(F)F)c2)n(Cc2ccncc2)c(=O)[nH]c1=O ; read by: cytopathic effect / MTT ; value: 1.867 µg/mL
COC(O)c1cnc(Nc2ccc(C#N)cc2)nc1Nc1c(C)cc(/C=C/C#N)cc1C ; strain or isolate: L100I + K103N ; value: 0.00389 µM
Cc1cc(C(=O)c2c(C(C)C)c(=O)[nH]c(=O)n2Cc2ccncc2)cc([N+](=O)[O-])c1 ; read by: cytopathic effect / MTT ; value: 0.0096 µg/mL
Cc1cnc(C(O)c2cnc(Nc3ccc(C#N)cc3)nc2Nc2c(C)cc(/C=C/C#N)cc2C)s1 ; strain or isolate: PSI (IIIB) ; value: 708 µM
CC(C)C1=C2[C@H]3CC[C@@H]4[C@@]5(C)CC[C@H](OC(=O)C6C[C@@H](C(=O)O)C6(C)C)C(C)(C)[C@@H]5CC[C@@]4(C)[C@]3(C)CC[C@@]2(NC(=O)C(C)(C)NC(=O)c2ccc3ccccc3n2)CC1=O ; strain or isolate: NL4-3 ; mutations: V7A ; read by: p24 ; value: 0.01001–0.05 µM

A second listing of 3 rows from above:

| smiles | strain or isolate | mutations | read by | setting | value |
|---|---|---|---|---|---|
| CC(C)c1c(C(=O)c2cc(F)cc(F)c2)n(Cc2cccnc2)c(=O)[nH]c1=O | - | - | cytopathic effect / MTT | - | 0.049 µg/mL |
| OC[C@H]1OC(c2ccccn2)=C[C@@H]1O | - | - | - | - | 15 µg/mL |
| Cc1cccc(C)c1OC(CCO)C(=O)N[C@@H](Cc1ccccc1)[C@H](O)CN(CC(C)C)S(=O)(=O)c1ccc2nc(N)oc2c1 | LAI WT | - | cytopathic effect / MTT | - | 1.62 µM |